Measurements reported in PubChem BioAssay AID1259414 (Drosophila RNAi Screening Center, 2018).
In all, the deposit lists about 24,000 reagents; shown is an unselected part of those that have a named target and a result. Of all reagents, about 1,210 (5%) are marked active. 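Inactive calls also include excluded dsRNAs with several or no targets, genes unexpressed in JW18, and well A1, regardless of score.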 Entries without a mark were called inactive. The numbers tell different reagents against one gene apart.

Purpose: 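Genome-wide screen for host control of endosymbiont load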 (primary screen)
Cells: Drosophila JW18 cells infected with Wolbachia
Reagents: long dsRNA against Drosophila genes, 0.25 µg dsRNA per well of a 384-well plate
Time to read-out: 5 days
Treatment: cells persistently infected with Wolbachia before knock-down; no added drug
Read-out: 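Automated imaging of bacterial rRNA staining divided by host cell count, reported as plate-normalised robust z-score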
Direction: Wolbachia per cell robust z: higher = more Wolbachia per host cell than the plate typical
Rule for the call: 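Active if absolute robust z reaches 1.5 in two or more of three replicates, leaving out multi- or no-target dsRNAs, genes unexpressed in JW18 and A1 wells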

CG8300 #1 scored Wolbachia per cell robust z, rep 1 = 1.3; Wolbachia per cell robust z, rep 2 = 1.37; Wolbachia per cell robust z, rep 3 = 0.712.
CG8300 #2 scored Wolbachia per cell robust z, rep 1 = 0.0243; Wolbachia per cell robust z, rep 2 = 0.809; Wolbachia per cell robust z, rep 3 = 0.257.
After knock-down of CG42827, the record shows Wolbachia per cell robust z, rep 1 = 0.516; Wolbachia per cell robust z, rep 2 = -1.77; Wolbachia per cell robust z, rep 3 = 0.489.
Silencing of CG13437 came out at: Wolbachia per cell robust z, rep 1 = -4.16; Wolbachia per cell robust z, rep 2 = -1.8; Wolbachia per cell robust z, rep 3 = -2.46.
After knock-down of CG33177, the screen gave Wolbachia per cell robust z, rep 1 = 0.305; Wolbachia per cell robust z, rep 2 = 0.516; Wolbachia per cell robust z, rep 3 = 0.396.
CG42704 showed Wolbachia per cell robust z, rep 1 = -0.323; Wolbachia per cell robust z, rep 2 = 0.0455; Wolbachia per cell robust z, rep 3 = -1.25.
After knock-down of CG31036 #1, the screen gave Wolbachia per cell robust z, rep 1 = 0.934; Wolbachia per cell robust z, rep 2 = 0.852; Wolbachia per cell robust z, rep 3 = 0.337.
After knock-down of CG31036 #2, the record shows Wolbachia per cell robust z, rep 1 = -4.87; Wolbachia per cell robust z, rep 2 = -3.32; Wolbachia per cell robust z, rep 3 = -3.82.
Knock-down of CG4287 #1 gave: Wolbachia per cell robust z, rep 1 = 0.463; Wolbachia per cell robust z, rep 2 = 0.282; Wolbachia per cell robust z, rep 3 = 0.149.
Depletion of CG4287 #2 gave: Wolbachia per cell robust z, rep 1 = -1.23; Wolbachia per cell robust z, rep 2 = -9.43; Wolbachia per cell robust z, rep 3 = -0.348.
Silencing of CG14071 came out at: Wolbachia per cell robust z, rep 1 = -2.39; Wolbachia per cell robust z, rep 2 = 0.158; Wolbachia per cell robust z, rep 3 = 0.607.
Against Grip (Glutamate receptor interacting protein) #1 the deposit lists Wolbachia per cell robust z, rep 1 = 0.461; Wolbachia per cell robust z, rep 2 = -1.09; Wolbachia per cell robust z, rep 3 = 0.303.
With knock-down of Grip (Glutamate receptor interacting protein) #2, the record shows Wolbachia per cell robust z, rep 1 = -0.0812; Wolbachia per cell robust z, rep 2 = 1.28; Wolbachia per cell robust z, rep 3 = 1.05.

Ordered by “Wolbachia per cell robust z, rep 2” (lowest first): some entries from above
Grip (Glutamate receptor interacting protein) #1: Wolbachia per cell robust z, rep 1 = 0.461; Wolbachia per cell robust z, rep 2 = -1.09; Wolbachia per cell robust z, rep 3 = 0.303
Grip (Glutamate receptor interacting protein) #2: Wolbachia per cell robust z, rep 1 = -0.0812; Wolbachia per cell robust z, rep 2 = 1.28; Wolbachia per cell robust z, rep 3 = 1.05
